Data as given in PubChem BioAssay AID504761 (Drosophila RNAi Screening Center, 2011)

Test: 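Genome-wide fly cell screen for genes dengue virus requires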 (primary screen)
Cells: D.Mel-2 cells from Drosophila
Reagents: long dsRNA against Drosophila genes
Challenge: infection with dengue virus type 2; dose and infection time not stated
Detection: 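Per well on two replicate plates, imaging gave the percent of cells positive for viral envelope protein, ranked by infection, and a nuclear count of cells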
Direction: infection score: higher = more virus-infected cells; cell count: higher = more cells in the well
Active means: 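Low infection ranks in the two replicates (chance level up to 0.065) followed by a retest with a 1.5-fold or larger significant decrease, p below 0.05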
Calls: active = confirmed: knock-down lowers infection; inactive = not picked or not confirmed
The deposit covers about 22,000 reagents; this is a random part of those that have a named target and a result. Of all reagents, 116 (0.52%) are marked active. 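Calls depend on retest data that are not deposited; infection was ranked per plate without normalising between plates; the unit of the infection score is not given.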 The raw values are shown without normalisation. A plus sign joins genes that one reagent is predicted to hit. Reagent sequences are not shown. Not stated in the record: the amount of reagent, the time to read-out.

no.	predicted target	DRSC id	infection score, replicate 1	infection score, replicate 2	cell count, replicate 1	cell count, replicate 2	Call
1	CG15021	DRSC08475	1.44	8.27	6324	6819	inactive
2	CG15021	DRSC25139	4.1	3.94	6341	6426	inactive
3	CG10344	DRSC04066			415	410	inactive
4	CG10344	DRSC24394	2.78	7.36	6157	5900	inactive
5	CG13160	DRSC06284	15	3.54	6419	6275	inactive
6	vig2	DRSC14402	2.23	1.28	6514	6477	inactive
7	vig2	DRSC30012	9.92	4.05	6511	6292	inactive
8	Polr3E	DRSC11880	8.99	17.2	4793	4436	inactive
9	Polr3E	DRSC23914	0.76	1.87	5365	5718	inactive
10	CG6426	DRSC06985	14.6	6.38	6345	6892	inactive
11	CG15531	DRSC15068	7.25	1.47	3586	6916	inactive
12	CG15531	DRSC24882	3.99	2.36	2759	6475	inactive
13	CG8646	DRSC07230	22.6	8.69	5924	6884	inactive
14	CG30325	DRSC05685	3.11	2.66	5658	5266	inactive
15	CG13690	DRSC00359	23.7	2.85	4810	6146	inactive
16	mamo	DRSC19370	1.13	1.42	6722	6254	inactive
17	mamo	DRSC29723	11.2	12.9	6094	5951	inactive
18	CG17672	DRSC09230	2.4	2.89	666	588	inactive
19	CG17672	DRSC10278	15.1	14.5	6871	6553	inactive
20	Atg13	DRSC16228	12.4	7.17	6154	7073	inactive
21	THG	DRSC01896	0.64	5.42	5612	6734	inactive
22	CG6738	DRSC16104	4.47	5.79	1991	5437	inactive
23	CG6738	DRSC27802	6.01	11.2	5603	6043	inactive
24	orb	DRSC23148	1.17	2.48	6554	7420	inactive
25	CG30275	DRSC04163	10.3	11.5	6595	6979	inactive
26	RpLP0	DRSC11878	10.3	17	6055	5965	inactive
27	RpLP0	DRSC22110	5.37	3.94	1042	1296	inactive
28	l(2)k09022	DRSC02108	9.9	29.7	4827	4565	inactive
29	CG9154	DRSC03150	6.54	15.9	6317	5503	inactive
30	CG14453	DRSC11710	1.12	3.93	6421	6430	inactive
31	CG14453	DRSC23780	1.61	3.69	7280	6616	inactive
32	CG11737	DRSC14364	3.95	4.56	6685	6883	inactive
33	CG9920	DRSC16578	2.12	0.73	6272	6423	inactive
34	BI-1	DRSC10782	2.2	2.1	6781	6417	inactive
35	CG31647 (retired record)	DRSC21903	16.3		5227	451	inactive
36	CG31647 (retired record)	DRSC24136	1.76	3.93	6032	5924	inactive
37	CG13893	DRSC08363	0.72	3.02	6401	6149	inactive
38	CG13229	DRSC06349	7.13	3.39	7084	6068	inactive
39	CG8379	DRSC16414	2.06	25.8	6403	5884	inactive
40	nAChRalpha5	DRSC01946	11.8	14.5	5731	5706	inactive
41	nAChRalpha5	DRSC01947	3.67	1.73	6738	6594	inactive
42	nAChRalpha5	DRSC22785	0.83	4.46	6156	6662	inactive
43	nAChRalpha5	DRSC29085	18.2	8	5808	6076	inactive
44	deltaTry + CG30031 + CG30025 + 1 more	DRSC27531	4.93	6.4	6933	6802	inactive
45	wntD	DRSC16423	3.54	7.5	6862	6548	inactive
46	wntD	DRSC28538	14.2	16.5	5356	5391	inactive
47	CG14655	DRSC12241	2.11	10.8	6539	6367	inactive
48	CG14655	DRSC29900	1.31	11.1	6398	6009	inactive
49	Nup154	DRSC03384	46.1	29.2	3755	4653	inactive
50	Nup154	DRSC26396	47.7	20.4	2239	3629	inactive
51	Nmnat	DRSC14644	2.38	7.19	5874	2683	inactive
52	Nmnat	DRSC26899	4.59	5.41	6559	6354	inactive
53	Bacc	DRSC27262	3.19	13.1	6121	6280	inactive
54	CG12992	DRSC19512	4.33	8.25	7231	6933	inactive
55	Slc45-1	DRSC10427	3.65	3.42	5728	6164	inactive
56	CG6674	DRSC10692	8.04	6.33	6381	6651	inactive
57	CG1307	DRSC12492	23.5	14.4	5152	5838	inactive
58	CG7785	DRSC16311	3.67	2.34	6708	6233	inactive
